Taken from: PubChem BioAssay AID1259414 (Drosophila RNAi Screening Center, 2018)
In all, the deposit lists about 24,000 reagents; below is an unselected part of those that have a named target and a result. Of all reagents, about 1,210 (5%) were called active. 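Inactive calls also include excluded dsRNAs with several or no targets, genes unexpressed in JW18, and well A1, regardless of score.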 Entries without a mark were called inactive. Names joined by + are all predicted targets of the reagent. Reagent sequences are not shown.

Aim: 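Genome-wide screen for host control of endosymbiont load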 (primary screen)
Cells: Drosophila JW18 cells infected with Wolbachia
Knock-down reagent: long dsRNA against Drosophila genes, 0.25 µg dsRNA per well of a 384-well plate
Duration: 5 days
Conditions: cells persistently infected with Wolbachia before knock-down; no added drug
Measured: 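Automated imaging of bacterial rRNA staining divided by host cell count, reported as plate-normalised robust z-score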
Scale: Wolbachia per cell robust z: higher = more Wolbachia per host cell than the plate typical
Hit rule: 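Hit when robust z is 1.5 or more, or -1.5 or less, in at least two of three replicates; excludes dsRNAs with several or no targets, genes not expressed in JW18 and well A1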

Target gene | dsRNA | Wolbachia per cell robust z, rep 1 | Wolbachia per cell robust z, rep 2 | Wolbachia per cell robust z, rep 3
Ir87a | DRSC14836 | -0.825 | -5.87 | -1.91
Ir87a | DRSC27649 | -0.825 | -1.85 | -0.791
mRpL45 | DRSC16146 | 0.706 | -1.98 | -0.0567
Nckx30C | DRSC02686 | -0.83 | 0.0422 | -1.01
Nckx30C | DRSC02687 | 0.156 | -0.794 | 0.26
Nckx30C | DRSC02688 | 0.0691 | 0.616 | 0.269
Nckx30C | DRSC02689 | -0.0737 | 0.452 | -0.328
Taf13 | DRSC02106 | 0.581 | -0.0646 | 0.299
TpnC47D | DRSC07564 | -0.612 | -0.428 | -1.4
TpnC47D | DRSC41545 | -0.00995 | -0.226 | -0.247
hpRNA:CR32207 | DRSC09616 | -0.912 | 0.203 | -0.26
CG8036 | DRSC16366 | -0.411 (active) | -2.77 | -1.98
Csp | DRSC11860 | 0.67 | -6.1 | 0.102
Csp | DRSC40822 | -1.55 | -0.231 | 0.865
CG11563 | DRSC14327 | 0.832 | 0.281 | -1.69
Nop17l | DRSC06556 | -0.35 | 1.14 | 0.579
Nop17l | DRSC29430 | -1.13 | -1.12 | -0.558
CG31233 | DRSC15888 | -2.19 | 0.0123 | -1.84
GstS1 | DRSC07436 | 0.311 | -0.632 | 0.288
GstS1 | DRSC40756 | -0.946 | 0.703 | 0.287
Polr3K + Tcs1 | DRSC26790 | -0.0389 | -1.3 | 0.0608
Cp110 | DRSC20630 | 1.2 | 0.274 | 1.21
Cp110 | DRSC21716 | -2.04 | -0.549 | 0.362
Ir25a | DRSC00462 | -0.119 | 0.255 | 1.02
Ir25a | DRSC26910 | -6.75 | -0.631 | -1.23
CG30275 | DRSC04163 | 0.891 | 0.529 | 0.405
CG43672 + CG43673 | DRSC20108 | 0.0866 | 0.476 | -2.23
CG7142 | DRSC16204 | -0.418 | -0.369 | -0.614
CG7142 | DRSC26968 | -0.568 | -0.16 | 0.511
CG33191 | DRSC27362 | 0.544 | 1.05 | 1.15
dpr6 | DRSC09005 | 0.681 | 1.26 | 1.51
dpr6 | DRSC10162 | -2.62 | -0.96 | 0.375
dpr6 | DRSC10163 | -0.675 | 0.733 | 0.909
CG12948 | DRSC14576 | -1.8 | -0.0401 | -0.229
CG12948 | DRSC27910 | -0.717 | 1.61 | 0.42
srw | DRSC08201 | 0.122 | 0.356 | -0.108
IntS14 | DRSC00668 | 0.74 | -0.27 | -1.03
Fpgs1 | DRSC19857 | 0.532 | 0.629 | 0.119
Fpgs1 | DRSC25579 | 1.34 | 0.427 | 0.897
CG31029 | DRSC15422 | -2.11 | 0.378 | -1.21
CG31029 | DRSC29559 | -0.187 | 1 | 1.41
Acph-1 | DRSC14103 | 0.16 | -4.28 | -0.514
Cp190 | DRSC16607 | 1.2 | -0.483 | -0.703
et | DRSC19582 | 0.925 | -0.179 | 0.328
Ir48c | DRSC06154 | -1.37 | -0.825 | -1.16
pippin | DRSC04489 | -0.0137 | -1.78 | -1.45
Or74a | DRSC11245 | -3.35 | -0.875 | -0.687
CG11437 | DRSC11659 | 0.639 | 0.163 | -0.062
shtd | DRSC20166 | -1.08 | 0.785 | 1.23
shtd | DRSC27760 | -0.0656 | 1.32 | 1.47
CG5828 | DRSC02900 | 0.671 | 0.938 | 0.301
CG5828 | DRSC24456 | 0.0822 | -0.248 | -0.691
CG5828 | DRSC41583 | 0.401 | -0.732 | 1.26
Phlpp | DRSC02065 | 0.508 | -0.934 | -0.0533
Phlpp | DRSC22808 | -0.665 | -1.31 | 0.191
TwdlO | DRSC16043 | -3.44 | -2.04 | 0.663
dgt5 | DRSC07280 | -0.586 | 1.07 | -0.338
dgt5 | DRSC29379 | 0.769 | 1.32 | 0.614
CG1847 | DRSC19810 | 0.0741 | 0.854 | 0.382
kmg | DRSC02829 | -0.11 | -4.81 | -0.237
Spn42Db | DRSC05009 | -0.066 | 0.242 | -1.12
CG33654 | DRSC37818 | 0.618 | 0.553 | 2.72
CG17724 | DRSC06687 | 0.675 | -6.33 | -0.185
CG17724 | DRSC27618 | 0.85 | 0.594 | 0.457
CG30471 | DRSC07096 | 0.235 | 1.57 | 0.234
HP5 | DRSC19773 | -3.41 (active) | 1.46 | -2.31
HP5 | DRSC27040 | -0.634 | 1.06 | 0.852
rin | DRSC22997 | 0.412 | 0.117 | -0.69
yip7 | DRSC11410 | -0.432 | -3.79 | 0.688
yip7 | DRSC25234 | 0.715 | 0.36 | -0.87
ect | DRSC10675 | -0.773 | -0.985 | -2.34
ect | DRSC11343 | 0.327 | -2.93 | 0.269
ect | DRSC22357 | -0.143 | 0.755 | -0.685
ect | DRSC27880 | -1.59 | -0.676 | -1.03
Mettl2 | DRSC08398 | 1.13 | 0.867 | -0.936
Mettl2 | DRSC29727 | -1.2 | 0.631 | 0.818
Ugalt | DRSC18467 | 0.925 | 0.367 | -1.18
Cpr49Ad | DRSC07284 | -0.38 | 0.317 | -0.164
Exo70 | DRSC10774 | 1.22 | 1.41 | 1.18
CG32846 | DRSC08012 | 1.1 | 0.265 | 0.356
CG32846 | DRSC27074 | -0.351 | -0.527 | -0.644
CG31381 + CG11089 | DRSC13690 | -1.52 | -0.337 | -0.573
jbug | DRSC03952 | 0.0443 | 0.626 | -1.5
jbug | DRSC04114 | -1.22 | -0.948 | -1.05
jbug | DRSC04167 | 0.337 | -3.51 | 0.162
jbug | DRSC04388 | 1.47 | 1.29 | 1.07
jbug | DRSC29978 | 0.61 | -0.139 | -0.578

A stretch of the results above:
Target gene | dsRNA | Wolbachia per cell robust z, rep 1 | Wolbachia per cell robust z, rep 2 | Wolbachia per cell robust z, rep 3
Or74a | DRSC11245 | -3.35 | -0.875 | -0.687
CG11437 | DRSC11659 | 0.639 | 0.163 | -0.062
shtd | DRSC20166 | -1.08 | 0.785 | 1.23
shtd | DRSC27760 | -0.0656 | 1.32 | 1.47
CG5828 | DRSC02900 | 0.671 | 0.938 | 0.301
CG5828 | DRSC24456 | 0.0822 | -0.248 | -0.691
CG5828 | DRSC41583 | 0.401 | -0.732 | 1.26
Phlpp | DRSC02065 | 0.508 | -0.934 | -0.0533
Phlpp | DRSC22808 | -0.665 | -1.31 | 0.191
TwdlO | DRSC16043 | -3.44 | -2.04 | 0.663
dgt5 | DRSC07280 | -0.586 | 1.07 | -0.338
dgt5 | DRSC29379 | 0.769 | 1.32 | 0.614
